Source: article PMC11096021 (Immunity, 2024)

B1: 09–1B12-UCA Fab (Lys-C digest of recombinant IgG, used for BLI) (Fab, V domains shown)
VH: QVQLVQSGAEVKKPGASVKVSCKASGYTFTSYGISWVRQAPGQGLEWMGWISAYNGNTNYAQKLQGRVTMTTDTSTSTAYMELRSLRSDDTAVYYCARGLLQGVVILDSYYYTMDVWGQGTTVTVSS
VL: not shown
B2: 09–1B12 Fab (mature; Lys-C digest of recombinant IgG, used for BLI) (Fab, V domains shown)
VH: QVQLVQSAPEVKRPGASVRLSCKASGYTFNTYGIIWVRQAPGQGLEWMGWISAYTGNTNYAQKVQGRVTMTTDITTSTAYLELRGLRSDDTAVYYCARGLLQGAVILDSYHYALDFWGQGTTVTVSS
VL: EIVLTQSPGTLSLSPGERATLSCRASQSVTNRFIAWYQHKPGQSPRLLIYGASSRATGIPDRFSGRGSGTDFTLTISRLEPEDFAVYYCQQYDTSPRWTFGQGTKLEIK

What was measured:
[1] = biological target: A/Shanghai/02/2013 H7 trimer (biotinylated, for BLI) (Influenza A virus A/Shanghai/02/2013 …, UniProt R4NN21, strain, biotin on the avi tag (BirA)); conditions: both partners purified
[2] = biological target: A/Indonesia/05/2005 H5 trimer (biotinylated, for BLI) (Influenza A virus A/Indonesia/5/2005 …, UniProt C5MRF2, strain, biotin on the avi tag (BirA)); conditions: both partners purified

| Binder | Kd [1] [nM] | binding result [2] | binding result [1] |
| --- | --- | --- | --- |
| B1 | 2680 | no binding | – |
| B2 | – | – | binds |
